In PubChem BioAssay AID651602 (The Scripps Research Institute Molecular Screening Center, 2012):
Only a part is listed here, and it is no random draw. The source made the active and inactive calls. Cut-off read from the data, not from the text of the source: active = inhibition above about 11%; inactive = the rest.

Experiment: growth loss of phage-infected E. coli, primary screen, RecBCD inhibitor project, absorbance, with phage, HTS (AID 651602)
Conditions: at 11.9 µM, active compounds read high

Row | Structure (SMILES) | inhibition
1 | CN(C(=O)Cc1ccccc1)C1CC[C@@]2(CCCO2)C[C@@H]1N1CCCC1 (stereo not given in full) | inactive: 0.53%
2 | CCN(N=Nc1nonc1N)c1nonc1N | inactive: 2.68%
3 | Nc1cccc2ccc([As](=O)(O)O)cc12 | inactive: -0.16%
4 | O=C(O)c1ccccc1[As](=O)(O)O | active: 24%
5 | CC(=O)Nc1ccc([As](=O)(O)O)cc1 | inactive: 0.48%
6 | CCCC1OP(N)(=O)OCC1CC (stereo not given) | inactive: 3.33%
7 | CN(C)P(=O)(N(C)C)n1c(Nc2ccccc2)nnc1-c1ccccc1 | inactive: 1.91%
8 | O=P(Nc1nc2ccc(Cl)cc2s1)(c1ccccc1)c1ccccc1 | inactive: -0.08%
9 | CCOP(=O)(Nc1ccccc1)OCC | inactive: 2.52%
10 | Cc1cc(SC(NC(=O)c2ccc(F)cc2)C(Cl)(Cl)Cl)ncn1 (stereo not given) | inactive: -0.45%
11 | CN(C(=O)Cc1ccc(Cl)c(Cl)c1)[C@H]1CCCC[C@@H]1N1CCCC1 | inactive: 3.65%
12 | Cc1ccc(NP(=O)(Oc2ccccc2F)Oc2ccccc2F)nc1 | inactive: 4.68%
13 | CCn1c(=O)n(C2CCN(CC3CCCCCCC3)C[C@H]2CO)c2ccccc21 (stereo not given in full) | inactive: 2.67%
14 | CC(C)CC(=O)NC(Sc1ccc(Cl)cc1)C(Cl)(Cl)Cl (stereo not given) | inactive: -0.62%
15 | Nc1cc(N)c2nonc2c1[N+](=O)[O-] | inactive: 2.85%
16 | Oc1ccccc1CNc1ccccn1 | inactive: 1.53%
17 | O=C(NC(Sc1ccncn1)C(Cl)(Cl)Cl)c1ccccc1 (stereo not given) | inactive: 4.06%
18 | NC(=O)c1cc([N+](=O)[O-])cc([N+](=O)[O-])c1N | inactive: 4.24%
19 | CN(C(=O)Cc1ccc(Cl)c(Cl)c1)[C@H]1CCCC[C@H]1N1CCCC1 | inactive: 2.39%
20 | Cc1ccc(N/C(=N/P(=O)(N2CCOCC2)N2CCOCC2)N2CCOCC2)cc1 | inactive: 4.06%
21 | COc1ccccc1OP(=O)(Nc1ccc(C)cn1)Oc1ccccc1OC | inactive: 2.82%
22 | Cc1ccc(OP(=O)(Nc2nccs2)Oc2ccc(C)cc2)cc1 | inactive: -3.91%
23 | Clc1ccc(Cl)c(NC2=NCC(CBr)S2)c1 (stereo not given) | inactive: 4.8%
24 | CN1CCCC(OC(=O)C(c2ccccc2)c2ccccc2)C1 (stereo not given) | inactive: 0.84%
25 | Nc1ccc([As](=O)(O)c2ccc(N)cc2)cc1 | inactive: 0.31%

Row | Structure (SMILES) | inhibition
26 | C[N+]1=C2C=CC=CC=C2SC12C([N+](=O)[O-])=CC([N+](=O)[O-])=C[C-]2[N+](=O)[O-] (stereo not given) | inactive: 4.22%
27 | CCN(/C(=N/P(=O)(N1CCOCC1)N1CCOCC1)N1CCOCC1)c1ccc(OC)cc1 | inactive: 3.09%
28 | CC(C)=N/N=C(\N)N[N+](=O)[O-] | inactive: 0%
29 | CC(C)c1nc(Nc2ccccc2)n(P(=O)(N(C)C)N(C)C)n1 | inactive: 2.4%
30 | CN(C)C(=O)OCCc1n(C)cc[n+]1C | inactive: 3.7%
31 | c1cc(-c2nn[nH]n2)ccc1-c1nn[nH]n1 | inactive: 3.03%
32 | CC1CCN(C(=O)Oc2c(Cl)cc(Cl)c3cccnc23)CC1 | inactive: 3.43%
33 | COc1ccc(C2=NCC(CBr)S2)cc1 (stereo not given) | inactive: 2.08%
34 | CC(=O)N1C2C3N(C(C)=O)C1C1N(C(C)=O)C(C(N1C(C)=O)N3C(C)=O)N2C(C)=O | inactive: 0.37%
35 | O=[N+]([O-])c1cccc2n[nH]nc12 | active: 19.8%
36 | Cc1ccc(NP(=O)(Oc2ccccc2)Oc2ccccc2)nc1 | inactive: 1.37%
37 | O=[N+]([O-])c1cc([N+](=O)[O-])c(CCNc2ccccc2)c([N+](=O)[O-])c1 | inactive: 1.22%
38 | CCc1nc2c(n1)c1c(non1O)c1c2no[n+]1[O-] | inactive: 4.53%
39 | CC(C)(C)C(=O)NC(Sc1ccncn1)C(Cl)(Cl)Cl (stereo not given) | inactive: 0.92%
40 | O=[N+]([O-])c1ncn(CCn2ncnc2[N+](=O)[O-])n1 | inactive: 2.13%
41 | O=[N+]([O-])c1cccc(NC2=NCC(CBr)S2)c1 (stereo not given) | inactive: -2.52%
42 | COC(=O)C1(C)COP(=O)(Nc2ccccc2)OC1 (stereo not given) | inactive: 1.4%
43 | O=C(O)CNc1ccc([As](=O)(O)O)cc1 | inactive: 1.35%
44 | O=P1(N(CCCl)CCCl)OCCCS1 (stereo not given) | inactive: 3.01%
45 | O=C(Nc1cc([As](=O)(O)O)ccc1O)c1ccccc1 | inactive: 1.83%
46 | CC(=O)NC(SC(=S)N(C)C)C(Cl)(Cl)Cl (stereo not given) | inactive: 4.54%
47 | O=[N+]([O-])c1ncn(CCn2cnc([N+](=O)[O-])n2)n1 | inactive: 1.38%
48 | O=[As](O)(c1ccccc1)c1ccc(O)cc1 | inactive: 1.85%
49 | C/C(N)=N\P(=O)(OCc1ccccc1)OCc1ccccc1 | inactive: 2.53%
50 | Nc1ccc([As](=O)(O)c2ccc([N+](=O)[O-])cc2)cc1 | inactive: 5.14%
